In one data set the test system is Vero E6 cells. The conditions noted are these: replicate values.
The next data set has as its system Caco 2-N cells. The settings on record: replicate values.
Where [1] appears, read: Log (contentration μM) 0.193125.
Where [2] appears, read: Log (contentration μM) -0.107905.
Where [3] appears, read: Log (contentration μM) -0.408935.

Values joined by “and” are separate entries in the source; they are usually repeats but may differ in a detail not shown here. Equal values may be shown once. Read-outs that look alike come from different tables or passages of the source. Where only a bound is given, the exact number is not on record here.

Turning to isotetrandrine, the “Cytoxicity (%)” value in the data set with Vero E6 cells (setting [1]) is 5.3% and -4.32%; in the data set on Vero E6 cells (Log (contentration μM) 0.49485), 5.41% and -2.27%; in the data set with Vero E6 cells (Log (contentration μM) 0.79588), -1.84% and -9.69%; with Vero E6 cells (Log (contentration μM) 1.09691) it was 6.11% and -1.78%; in the data set on Vero E6 cells (Log (contentration μM) 1.39794) it was 1.6% and -1.17%; with Vero E6 cells (Log (contentration μM) 1.69897), 15.84% and 8.68%. In addition, the “Cytoxicity (%)” value with Vero E6 cells (setting [2]) is 13.17% and 0.14%; in the data set on Vero E6 cells (setting [3]) it was 6.75% and -0.38%; in the data set with Caco 2-N cells (setting [1]), 9.73% and 0.03%; with Caco 2-N cells (Log (contentration μM) 0.49485), 5.9% and -3.83%; in the data set on Caco 2-N cells (Log (contentration μM) 0.79588), 8.57% and -4.22%; in the data set on Caco 2-N cells (Log (contentration μM) 1.09691), 3.59% and -4.42%. For the same substance, the “Cytoxicity (%)” value in the data set with Caco 2-N cells (Log (contentration μM) 1.39794) is 8.55% and -4.22%; with Caco 2-N cells (Log (contentration μM) 1.69897), 15.37% and 1.74%; with Caco 2-N cells (setting [2]), 8.61% and 2.25%; in the data set with Caco 2-N cells (setting [3]), 8.26% and 4.72%. Besides, the “SI (SARS-CoV-2 trVLP, Caco 2-N)” value in the data set on SARS-CoV-2 trVLP is given as over 17.73.

The values above are taken from article PMC10879537 (Nature Communications, 2024).
